The results in this text go back to ChEMBL document CHEMBL5143506, “Design, synthesis, and mechanism study of dimerized phenylalanine derivatives as novel HIV-1 capsid inhibitors” (Eur J Med Chem, 2021).

One data set concerns MT4. To be noted: human, mt4, 120 h.
For data set [1] the following is noted: human, plasma, 2 h, 100 µM.
Data set [2] is described as follows: in vitro. To be noted: human, liver microsomes. A general note: Liver microsomes are vesicles of endoplasmic reticulum, rich in cytochrome P450 enzymes.
Data set [3] in a line: in vitro. To be noted: human, liver microsomes. This is another data set of the same source.

Consider `COc1ccc(N(C)C(=O)[C@H](Cc2cc(F)cc(F)c2)NC(=O)CN2CCN(CC(=O)N[C@@H](Cc3cc(F)cc(F)c3)C(=O)N(C)c3ccc(OC)cc3)C(=O)C2)cc1`, for which the CC50 in the data set with MT4 came out at 14.5 µM. The Stability in data set [1] came out at 95%. For the same molecule, the amount remaining at 1 h, 100 µM in “in vitro [2]” worked out at 0%; in “in vitro [3]”, 102%.
